Compound potency records, mixed from different reports. Data source: NIAID ChemDB in PubChem.

Shared fields: growth or infection tests; agent: HIV-2; strain: ROD; cells: MT-4; measure: EC50

An empty or dashed field is not shown. Conditions beyond the fields shown may differ between rows. ECn is the concentration giving n% inhibition of infection, replication or growth.

SMILES | read by | result
O=C(COc1nsnc1-c1cccc2ccccc12)Nc1ccccc1[N+](=O)[O-] | MTT | >66 µM
O=c1cc(Cc2ccccc2)nc(OC2CCCC2)[nH]1 | cytopathic effect / MTT | >200 µM
CC[C@@H](NS(=O)(=O)c1ccc(Cl)cc1)c1n[nH]c(=S)o1 | cytopathic effect | >125 µg/mL
Cc1cn([C@@H]2O[C@@H]3CN[C@@]4(C#N)CS(=O)(=O)O[C@@]34[C@H]2O)c(=O)[nH]c1=O |  | >250 µM
CC(Oc1nsnc1-c1cccc2ccccc12)C(=O)Nc1ccccc1Cl | MTT | >17 µM
Cc1cn([C@@H]2O[C@@H]3CN[C@@]4(OCc5ccccc5)CS(=O)(=O)O[C@@]34[C@H]2O[Si](C)(C)C(C)(C)C)c(=O)[nH]c1=O |  | >10 µM
Cc1ccc(-c2nnc(-c3ccc(N)cc3)o2)cc1 | cytopathic effect | >35 µg/mL
Cc1cc(C)cc(Nn2cnc(C)c2-c2ccccc2)c1 | cytopathic effect / MTT | >20.44 µM
Cn1c(N2CCOCC2)c(N=Nc2ccc(-c3ccc(F)cc3)cc2)c(N)nc1=O | MTT | >88.71 µM
Nc1nc(NC2CC2)c2ncn([C@H]3C[C@@H](OCP(=O)(O)O)CO3)c2n1 | MTT / absorbance | >338 µM
Fc1ccccc1Cn1cc(COc2nsnc2-c2cccc3ccccc23)nn1 | MTT | >79 µM
CSc1nsc(-c2ccc(OCc3ccccc3)cc2)c1C#N | cytopathic effect | >125 µg/mL
Cn1c(-c2ccc(F)cc2)cc(N)nc1=O | MTT | >19.35 µM
Cc1ncn(Nc2ccccc2)c1C | cytopathic effect / MTT | >351 µM
Cc1c(Cc2ccccc2)nc(OC(C)C)[nH]c1=O | cytopathic effect / MTT | >200 µM
CC[C@@H](NS(=O)(=O)c1ccc(OC)cc1)c1n[nH]c(=S)o1 | cytopathic effect | >125 µg/mL
Cc1cn([C@@H]2O[C@@H]3CN[C@@]4(C#N)CS(=O)(=O)O[C@@]34[C@H]2O[Si](C)(C)C(C)(C)C)c(=O)[nH]c1=O |  | >50 µM
CSCC[C@H](NS(=O)(=O)c1ccc(C)cc1)c1n[nH]c(=S)o1 | cytopathic effect | 18 µg/mL
CCOC(=O)Sc1nsc(-c2ccccc2)c1C#N | cytopathic effect | 13.4 µg/mL
Cc1cn([C@H]2C[C@@H](OCP(=O)(O)O)CO2)c(=O)[nH]c1=O | MTT / absorbance | 23.55 µM
COC(=O)c1ccc(NC(=O)COc2nsnc2-c2cccc3ccccc23)cc1 | MTT | >4.9 µM
CCC(C)Oc1nc(Cc2ccccc2)c(C)c(=O)[nH]1 | cytopathic effect / MTT | >200 µM
CCN(CC)c1c(N=Nc2ccc(-c3ccc(OC)c(OC)c3)cc2)c(N)nc(=O)n1C | MTT | >25.23 µM
Fc1cccc(Cn2cc(COc3nsnc3-c3cccc4ccccc34)nn2)c1 | MTT | >67 µM
COc1ccc(-c2cc(N)nc(=O)n2C)cc1OC | MTT | >14.23 µM
CCc1ncn(Nc2cccc(C)c2)c1-c1ccccc1 | cytopathic effect / MTT | >27.87 µM
O=C(COc1nsnc1-c1cccc2ccccc12)Nc1ccccc1Cl | MTT | >126 µM
Cc1ccc(-c2nnc(-c3ccc(NS(=O)(=O)c4ccc(C)cc4)cc3)o2)cc1 | cytopathic effect | >119 µg/mL
Cc1cn([C@H]2C[C@H](N=[N+]=[N-])[C@@H](CO)O2)c(=O)[nH]c1=O | cytopathic effect | 0.0005 µg/mL
Cc1ncn(Nc2ccc(F)cc2)c1-c1ccccc1 | cytopathic effect / MTT | >30.82 µM
CCCOC(=O)[C@H](Cc1ccccc1)NP(=O)(CO[C@H]1CO[C@@H](n2cnc3c(=O)[nH]cnc32)C1)N[C@@H](Cc1ccccc1)C(=O)OCCC | MTT / absorbance | >95.1 µM
Cn1c(N2CCOCC2)c(N=Nc2ccc(Cl)cc2)c(N)nc1=O | MTT | >12.22 µM
Nc1ncnc2c1ccn2/C=C/[C@H](CO)OCP(=O)(O)O | MTT / absorbance | >398 µM
Cc1cn([C@@H]2O[C@@H]3CN[C@@]4(C(N)=O)CS(=O)(=O)O[C@@]34[C@H]2O)c(=O)[nH]c1=O |  | >250 µM
Cc1ncn(Nc2cccc(Cl)c2)c1-c1cccc(C#N)c1 | cytopathic effect / MTT | >36.79 µM
Cn1c(N(Cc2ccccc2)Cc2ccccc2)c(N=Nc2ccc(Cl)cc2)c(N)nc1=O | MTT | >78.59 µM
CC(Oc1nsnc1-c1cccc2ccccc12)C(=O)Nc1ccccc1F | MTT | >52 µM
CCCOC(=O)[C@H](Cc1ccccc1)NP(=O)(CO[C@H]1CO[C@@H](n2cc(F)c(=O)[nH]c2=O)C1)N[C@@H](Cc1ccccc1)C(=O)OCCC | MTT / absorbance | >64 µM
N#Cc1c(-c2ccccc2)s[nH]c1=S | cytopathic effect | 9.7 µg/mL
Cc1ccnc2c1NC(=O)c1cccnc1N2C1CC1 | MTT | >4 µM
O=c1cc(Cc2ccccc2)nc(OC2CCCCC2)[nH]1 | cytopathic effect / MTT | >200 µM